Laboratory results taken from paper PMC12360793 (2025).

Molecular target: PnNL2018B S1-hFc (PnNL2018B (bat MERSr-CoV sampled in …))
Assay: BLI

B1: m46 (domain or fragment)
chain: QSLTTEEKAREFLDKFNSEAENWSHESALASWDYNTNINDKNAQKMNEADSKWSAFYKEHSKLAQGFPLQEIQNSTIKLQLQILQQNGSSVLTAEKSKRLSTILTTMSTIYSTGKVCNPNNPQQCFTLSGLEDIMEKSKDYHQRLWIWEGWRSEVGKQLRPLYEEYVALKNEMARGNNYKDYGDYWRGDYETEGGDGYNYSRNHLIEDVDRIFLEIKPLYEQLHAYVRAKLMNAYPSRISPTGCLPAHLLGDMWGRFWTNLYNLTVPFEKKQNIDVTDTMKKQSWDAEKIFKEAEKFYLSVGLHNMTPEFWNNSMLTEPSDGRQVVCHPTAWDLGKNDFRIKMCTKVTMDDFLTAHHEMGHIQYDMAYAKQPYLLRNGANEGFHEAVGEIMSLSAATPKHLKDLGLLAQNYPEDYETEINFLLKQALNIVGTLPFTYMLEKWRWMVFEGKIPKEQWMEKWWEMKREIVGVVEPLPHDETYCDPASLFHVANDYSFIRYFTRTILEFQFQEALCQIANHTGPLHKCDISNSTEAGKQLKNMLELGKSKPWTFALEQIARTKEMDAKPLLNYFKPLFSWLKELNGNSVGWSADWSPYSEQSIKVRISLKSALGEKAYEWNDNEMYLFRSSVAYAMRVYFLKVKNETIPFRAEDVWVSDEKIRVSFKFFVTSPTNVSDIIPRSEVEDAIRMSRGRINDAFRLDDKTLEFLGIQPTLGPPYQPPVT
For B1, the koff was 0.0019 s⁻¹.
